Pooled drug test results. Numbers come from NIAID ChemDB, via PubChem.

All rows: growth or infection tests; species: HIV-1; read-out: inhibition

Inhibition is in % at the dose shown (toxicity tests: loss of growth or viability). Lines come from different laboratories, so protocols vary. An empty or dashed field is not shown.

{"compound": "Cc1cn([C@H]2C[C@H](N=[N+]=[N-])[C@@H](COP(=O)(O)OC[C@H]3OC(O)[C@H](O)[C@@H](O)[C@@H]3O)O2)c(=O)[nH]c1=O", "tested at": "1 µM", "conditions": "14 d", "cell line": "U-937", "strain or isolate": "LAV-Bru", "method": "RT activity", "result": "9%"}
{"compound": "Oc1ccc(/C=C/c2cc(O)cc(O)c2)cc1", "tested at": "10 µM", "conditions": "clinical isolate", "cell line": "PBMC", "strain or isolate": "EJC-X1", "method": "p24", "result": "35%"}
{"compound": "COc1ccc(CN[C@@H](C(=O)N[C@H]2c3ccccc3C[C@H]2O)[C@H](O)[C@H](Cc2ccccc2)NC(=O)[C@@H](NC(=O)OCc2ccccc2)C(C)(C)C)cc1", "tested at": "0.23 µM", "cell line": "Primary T4 cells + T4", "strain or isolate": "HEM", "method": "p24", "result": "90%"}
{"compound": "CCC(C)[C@H](NC(=O)[C@H](C(C)C)[C@@H](O)[C@H](O)[C@H](CC1CCCCC1)NC(=O)c1ccccc1SCCCCC[C@@H]1SC[C@@H]2NC(=O)NC21)C(=O)NCc1ccccn1", "tested at": "0.01 µM", "cell line": "PBMC", "strain or isolate": "D34", "result": "10%"}
{"compound": "Nc1ncnc2c1ncn2C=C=CCO", "tested at": "100 µM", "cell line": "ATH8", "strain or isolate": "IIIB", "method": "cytopathic effect / trypan blue", "result": "97%"}
{"compound": "c1cc(CN2CCCNCCNCCCNCC2)ccc1CN1CCCNCCNCCCNCC1", "tested at": "0.5 µM", "cell line": "PBMC", "strain or isolate": "SW5 CLADE C R5", "method": "p24", "result": "19%"}
{"compound": "O=S(=O)(O)c1cc(N=C=S)ccc1/C=C/c1ccc(N=C=S)cc1S(=O)(=O)O", "tested at": "100 µg/mL", "cell line": "C8166", "strain or isolate": "RF", "method": "p24", "result": "95.2%"}
{"compound": "Nc1ccn(C/C=C/CO)c(=O)n1", "tested at": "100 µM", "cell line": "ATH8", "strain or isolate": "IIIB", "method": "cytopathic effect / trypan blue", "result": "0%"}
{"compound": "CC(C)Nc1cccnc1N1CCN(C(=O)c2cc3ccccc3[nH]2)CC1", "tested at": "1 µM", "cell line": "MT-2", "strain or isolate": "LAV", "result": "100%"}
{"compound": "Cc1cn([C@H]2C[C@H](N=[N+]=[N-])[C@@H](COP(=O)(O)OC[C@H]3OC(O)[C@@H](O)[C@@H](O)[C@@H]3O)O2)c(=O)[nH]c1=O", "tested at": "5 µM", "conditions": "7 d", "cell line": "CEM", "strain or isolate": "LAV-Bru", "method": "RT activity", "result": "93%"}
{"compound": "Nc1ccn(C=C=CCO)c(=O)n1", "tested at": "0.2 µM", "cell line": "ATH8", "strain or isolate": "IIIB", "method": "cytopathic effect / trypan blue", "result": "68%"}
{"compound": "Cc1cn([C@H]2C[C@H](N=[N+]=[N-])[C@@H](CCP(=O)(O)O)O2)c(=O)[nH]c1=O", "tested at": "200 µM", "cell line": "MT-4", "strain or isolate": "IIIB", "method": "cytopathic effect / propidium iodide", "result": "0%"}
{"compound": "O=C(O)P(=O)(O)O", "tested at": "64 µM", "conditions": "14 d", "cell line": "PBL", "strain or isolate": "IIIB", "method": "RT activity", "result": "79%"}
{"compound": "CC(=O)N1CCC(C(=O)N(CCCN2CCC(Cc3ccc(C(N)=O)cc3)CC2)c2ccc(C)c(Cl)c2)CC1", "tested at": "0.015 µM", "cell line": "PBMC", "strain or isolate": "HTN R5 clinical isolate", "method": "p24", "result": "90%"}
{"compound": "Cc1c(CBr)n2c(C[N+](C)(C)C)c(C)c(=O)n2c1=O.[Br-]", "tested at": "300 µM", "cell line": "H9", "strain or isolate": "IIIB", "method": "p24", "result": "44%"}
{"compound": "Nc1ncnc2c1ncn2CCCCO", "tested at": "100 µM", "cell line": "ATH8", "strain or isolate": "IIIB", "method": "cytopathic effect / trypan blue", "result": "16%"}
{"compound": "CCCCCCCCCCCCCCCCOC[C@H](CCl)OP(=O)(O)OCC[N+](C)(C)C", "tested at": "10 µM", "cell line": "H9", "strain or isolate": "IIIB", "method": "RT activity", "result": "81%"}
{"compound": "CC[C@@]1(O)C(=O)OCc2c1cc1n(c2=O)Cc2cc3ccccc3nc2-1", "tested at": "0.01 µM", "cell line": "H9", "strain or isolate": "IIIB", "method": "RT activity", "result": "89%"}
{"compound": "COc1cc(O)c2c(c1)C(=O)c1c(cc3c(c1O)-c1c(cc(C)c(C(=O)N[C@H](C)C(=O)O)c1O)[C@H](O[C@@H]1O[C@H](CO)[C@H](NC(C)=O)[C@H](O)[C@H]1O)[C@H]3O)C2=O", "tested at": "30 µg/mL", "cell line": "MT-4", "strain or isolate": "IIIB", "method": "antigen", "result": "<10%"}
{"compound": "Nc1nc(NC2CC2)c2ncn([C@H]3C=C[C@@H](CO)C3)c2n1", "tested at": "4 µM", "cell line": "PBMC", "strain or isolate": "IIIB", "method": "p24", "result": "95%"}
{"compound": "COc1cc(O)c2c(=O)oc3cc(O)cc(C)c3c2c1", "tested at": "60 µM", "conditions": "pseudotyped", "cell line": "HeLa", "strain or isolate": "NL4-3", "method": "luciferase", "result": "57%"}
{"compound": "CCC[C@@]1(CCc2ccccc2)CC(O)=C([C@H](CC)c2cccc(NS(=O)(=O)c3ccc(C(F)(F)F)cn3)c2)C(=O)O1", "tested at": "0.17 µM", "cell line": "PBMC", "strain or isolate": "Isolate N. Amer 5", "method": "p24", "result": "90%"}
{"compound": "COC(=O)[C@@H]1C2CCC(C[C@@H]1OC(=O)c1ccccc1)N2C", "tested at": "25 µg/mL", "cell line": "ACH-2 + ACH2", "strain or isolate": "IIIB", "method": "p24", "result": "<0%"}
{"compound": "O=c1[nH]cnc2c1ncn2[C@H]1CC[C@@H](CO)O1", "tested at": "10 µM", "cell line": "ATH8", "strain or isolate": "IIIB", "method": "cytopathic effect / trypan blue", "result": "97%"}
{"compound": "CC(C)[C@H](NC(=O)c1ccc2ccccc2n1)C(=O)N[C@@H](Cc1ccccc1)[C@H](O)CN1CC[C@@H](OCc2ccncc2)C[C@H]1C(=O)NC(C)(C)C", "tested at": "0.009 µM", "cell line": "H9", "strain or isolate": "IIIB", "method": "p24", "result": "90%"}
{"compound": "CCC(C)[C@H](NC(=O)[C@H](C(C)C)[C@@H](O)[C@H](O)[C@H](CC1CCCCC1)NC(=O)[C@@H](NC(=O)CCCCC1SC[C@@H]2NC(=O)NC12)C(C)C)C(=O)NCc1ccccn1", "tested at": "0.1 µM", "cell line": "PBMC", "strain or isolate": "D34", "method": "p24", "result": "89%"}
{"compound": "Cc1cn([C@H]2C[C@H](N=[N+]=[N-])[C@@H](CO)O2)c(=O)[nH]c1=O", "tested at": "0.0017 µg/mL", "cell line": "Monocytes + Monocyte", "strain or isolate": "BaL", "method": "p24 / ELISA", "result": "90%"}
{"compound": "COc1cc(O)c2c(c1)C(=O)c1c(cc3c(c1O)-c1c(cc(C)c(C(=O)NC(C)C(=O)O)c1O)[C@H](OC1OC(C)C(N)C(O)C1O)[C@H]3O)C2=O", "tested at": "30 µg/mL", "cell line": "MT-4", "strain or isolate": "IIIB", "method": "antigen", "result": "20%"}
{"compound": "Cc1cn([C@H]2C[C@H](N=[N+]=[N-])[C@@H](CO)O2)c(=O)[nH]c1=O", "tested at": "10 µM", "cell line": "CEM", "strain or isolate": "LAV-1", "method": "virus yield", "result": ">100%"}
{"compound": "COC(=O)[C@@H](C)NC(=O)c1c(C)cc2c(c1O)-c1c(cc3c(c1O)C(=O)c1cc(OC)cc(O)c1C3=O)[C@H](O)[C@H]2O[C@@H]1O[C@H](C)[C@H](O)[C@H](O[C@@H]2OC[C@@H](O)[C@H](O)[C@H]2O)[C@H]1O", "tested at": "30 µg/mL", "cell line": "MT-4", "strain or isolate": "IIIB", "method": "antigen", "result": "<10%"}
{"compound": "CC(C)(O)[C@H](O)COc1c2occc2cc2ccc(=O)oc12", "tested at": "50 µM", "cell line": "MT-2", "strain or isolate": "NL4-3 Recombinant VSV-pseudotyped", "method": "luciferase", "result": "60%"}
{"compound": "COc1ccccc1CN[C@H]1C2CCN(CC2)[C@H]1C(c1ccccc1)c1ccccc1", "tested at": "0.1 µM", "cell line": "Macrophage + Monocytes/macrophages", "strain or isolate": "BL-6 Primary R5 isolate", "method": "RT activity", "result": "50%"}
{"compound": "COc1cc(O)c2c(c1)C(=O)c1c(cc3c(c1O)-c1c(cc(C)c(C(=O)N[C@H](C)C(=O)O)c1O)[C@H](O[C@@H]1O[C@H](C)[C@H](O)[C@H](O[C@@H]4OC[C@@H](OS(=O)(=O)O)[C@H](O)[C@H]4O)[C@H]1O)[C@H]3O)C2=O", "tested at": "10 µg/mL", "cell line": "MT-4", "strain or isolate": "IIIB", "method": "antigen", "result": "<10%"}
{"compound": "CC(C)=CCOc1c2occc2cc2ccc(=O)oc12", "tested at": "25 µM", "cell line": "MT-2", "strain or isolate": "NL4-3 Recombinant VSV-pseudotyped", "method": "luciferase", "result": "64%"}
{"compound": "Cc1cn([C@H]2C[C@H](N=[N+]=[N-])[C@@H](CO)O2)c(=O)[nH]c1=O", "tested at": "1 µM", "conditions": "26 d", "cell line": "CEM", "strain or isolate": "LAV-Bru", "method": "RT activity", "result": "20%"}
{"compound": "Nc1nc2c(ncn2C/C=C/CO)c(=O)[nH]1", "tested at": "200 µM", "cell line": "ATH8", "strain or isolate": "IIIB", "method": "cytopathic effect / trypan blue", "result": "8%"}
{"compound": "O=C1N(Cc2ccc(CO)cc2)[C@H](Cc2ccccc2)[C@H](O)[C@@H](O)[C@@H](Cc2ccccc2)N1Cc1ccc(CO)cc1", "tested at": "0.18 µM", "cell line": "PBMC", "strain or isolate": "Clinical isolate L", "method": "p24", "result": "90%"}
{"compound": "COC(=O)[C@@H](C)NC(=O)c1c(C)cc2c(c1O)-c1c(cc3c(c1O)C(=O)c1cc(OC)cc(O)c1C3=O)[C@H](O)[C@H]2O[C@@H]1O[C@H](CO)[C@H](N)[C@H](O)[C@H]1O", "tested at": "30 µg/mL", "cell line": "MOLT-4", "strain or isolate": "IIIB", "method": "syncytia", "result": "100%"}

For reference, 5 entries again:

compound,tested at,conditions,cell line,strain or isolate,method,result
Cc1c(CBr)n2c(C[N+](C)(C)C)c(C)c(=O)n2c1=O.[Br-],300 µM,-,H9,IIIB,p24,44%
Nc1nc(NC2CC2)c2ncn([C@H]3C=C[C@@H](CO)C3)c2n1,4 µM,-,PBMC,IIIB,p24,95%
Cc1cn([C@H]2C[C@H](N=[N+]=[N-])[C@@H](COP(=O)(O)OC[C@H]3OC(O)[C@H](O)[C@@H](O)[C@@H]3O)O2)c(=O)[nH]c1=O,1 µM,14 d,U-937,LAV-Bru,RT activity,9%
Nc1ccn(C=C=CCO)c(=O)n1,0.2 µM,-,ATH8,IIIB,cytopathic effect / trypan blue,68%
CC(C)=CCOc1c2occc2cc2ccc(=O)oc12,25 µM,-,MT-2,NL4-3 Recombinant VSV-pseudotyped,luciferase,64%